A mixed list of measured activities; the numbers were collected in NIAID ChemDB.

Shared fields: cytotoxicity tests; read-out: CC50

Rows are shuffled and stem from different studies. CCn: concentration that lowers growth or viability of the cells by n%. Blank or dashed fields: not listed here.

smiles,method,cells,value
Cc1ccccc1NC(=O)CSc1sc(N)nc1-c1ccc(Br)cc1Br,MTS,MDCK cells,50.66 µM
Nc1cc(SCCOCP(=O)(O)O)nc(N)n1,,HepAD38,>357 µM
CC1(C)[C@@H](O[C@H]2O[C@H](C(=O)O)[C@@H](O)[C@H](O)[C@H]2O[C@@H]2O[C@H](C(=O)O)[C@@H](O)[C@H](O)[C@H]2O)CC[C@]2(C)[C@H]3C(=O)C=C4[C@@H]5C[C@@](C)(C(=O)O)CC[C@]5(C)CC[C@@]4(C)[C@]3(C)CC[C@@H]12,WST,Huh7.5,560 µg/mL
CO[C@H]1/C=C/O[C@@]2(C)Oc3c(C)c(O)c4c(O)c(c(C5SCCS5)c(O)c4c3C2=O)NC(=O)/C(C)=C\C=C\[C@H](C)[C@@H]2OC(C)(C)O[C@H]([C@@H](C)[C@H](O)[C@@H]1C)[C@@H]2C,,VERO,14.34 µg/mL
CN1CCc2cc3c(cc2[C@H]1[C@H]1OC(=O)c2c1ccc1c2OCO1)OCO3,,KB cells,>10 µg/mL
Nc1ccn([C@H]2C=C[C@@H](CO)O2)c(=O)n1,trypan blue,HB611,200 µg/mL
CC(C)[C@H](NC(=O)OCCN1CCCC1)C(=O)N[C@@H](Cc1ccccc1)[C@@H](O)[C@H](Cc1ccccc1)NC(=O)[C@@H](NC(=O)OCc1ccccc1)C(C)C,trypan blue,H9,21 µM
CCCCCCCCN1COC2CCc3ccccc3C21,,VERO,>10 µg/mL
O=c1cc(-c2ccc(Oc3c(O)cc4oc(-c5ccc(O)cc5)cc(=O)c4c3O)cc2)oc2cc(O)cc(O)c12,visual reading,MDCK,1.3 µg/mL
COC(=O)[C@H]1CC[C@@H](c2ccc[n+](C)c2)N1,trypan blue,HL-60,>50 µM
O=C1c2cccc(O)c2C(=O)c2c(O)c(O)cc(O)c21,,MRC-5,21.8 µM
OC(c1cc(-c2ccc(Cl)cc2)nc2c(Cl)cccc12)C1CCCCN1,,VERO,1.5 µg/mL
O=C(CCCN1CCC(O)(c2cccc(NC3CCCCC3)c2)CC1)c1ccc(F)cc1,,COSA5,10 µM
CCCCCCCCCCCCCCCCOCCCOP(=O)(O)COCCn1cnc2c(N)nc(N)nc21,propidium iodide,MT-2,0.02 µM
O=C(c1nn2c(C(F)(F)F)cc(C3CC3)cc2c1Cl)N1CCC2(OCC3(CC3)CO2)C(=O)C1,ATP,Huh7,>50 µM
O=C1O[C@](CCl)(c2ccc(F)cc2)c2ccccc21,MTT,TZM-bl,144.6 µM
NC(N)=NC(=O)c1nc(Cl)c(N2CCCCCC2)nc1N,,MDM,>10 µM
CC(C)[C@H](NC(=O)OCCN1CCOCC1)C(=O)N[C@@H](Cc1ccccc1)[C@@H](O)[C@H](Cc1ccccc1)NC(=O)[C@@H](NC(=O)OCc1ccccc1)C(C)C,trypan blue,H9,>100 µM
COc1nc(OC(F)(F)F)c(NC(=O)C2CCC3C4CN(C(=O)OC(C)(C)C)C5=CC(=O)CC[C@]5(C)C4CC[C@]23C)cc1Br,ATP / luminescence,HK-2,>30 µM
Nc1nc(N)c2ncn(CCOCP(=O)(O)O)c2n1,,HSB-2,51 µg/mL
CN(C)C(=S)SSC(=S)N(C)C,,VERO,0.2 µg/mL
NC(=O)c1c[se]c(C2OC(CO)C(O)C2O)c1,,RAJI,0.9 µM
CCCCCCCCCCCCCCCCOCCCOP(=O)(O)COCCn1cc(F)c(N)nc1=O,propidium iodide,MT-2,24 µM
O=c1[nH]c(=O)n([C@H]2C[C@H](O)[C@@H](CO)O2)cc1/C=C/Br,,HSB-2,0.2 µg/mL
Cc1cn([C@@H]2O[C@H](CO)[C@@H](O)[C@@H]2O)c(=O)[nH]c1=O,,HELF,100 µg/mL
Nc1cc(OCCOCP(=O)(O)O)ncn1,,HepAD38,>402 µM
Cc1ccc2c(c1)C(c1ccc(F)cc1)(C(C)Cl)OC2=O,MTT,TZM-bl,263 µM
[2H][C@@]1(O)C[C@H](n2ccc3c(N)nc(Cl)nc32)O[C@]1(C#C)CO,luminescence,MT4-GFP,>42 µM
NC(=O)c1csc([C@@H]2O[C@H](CO)[C@@H](O)[C@H]2O)n1,,RAJI,8.2 µM
Nc1nc(-c2ccc(Br)cc2Br)c(SCC(=O)Nc2ccccc2N)s1,MTS,MDCK cells,42.26 µM
CO[C@H]1/C=C/O[C@@]2(C)Oc3c(C)c(O)c4c(O)c(c(/C=N/N(c5ccccc5)c5ccccc5)c(O)c4c3C2=O)NC(=O)/C(C)=C\C=C\[C@H](C)[C@H](O)[C@@H](C)[C@@H](O)[C@@H](C)[C@H](OC(C)=O)[C@@H]1C,,VERO,6.91 µg/mL
CCCCCCCCCCCCCCCCOCCCOP(=O)(O)COCCn1cnc2c(NC3CC3)nc(N)nc21,propidium iodide,MT-2,0.12 µM
Cc1ccc(C(C)C)c(O)c1,XTT,C8166,400 µM
CC1(C)C=Cc2c(ccc3c2OC[C@@H](c2ccc(O)cc2O)C3)O1,WST,Huh7.5,22.7 µg/mL
CC(C)(C)NC(=O)[C@@H]1C[C@@H]2CCCC[C@@H]2CN1C[C@@H](O)[C@H](Cc1ccccc1)NC(=O)[C@H](CC(N)=O)NC(=O)c1ccc2ccccc2n1,,HCT-8,>250 µg/mL
O=C(CCCN1CCC(O)(c2ccc(Cl)cc2)CC1)c1ccc(NC2CCCCC2)cc1,,COSA5,25 µM
CC(C)[C@H](NC(=O)OCc1ccccc1)C(=O)N[C@@H](Cc1ccccc1)[C@H](O)[C@@H](O)[C@H](Cc1ccccc1)NC(=O)[C@@H](NC(=O)OCc1ccccc1)C(C)C,trypan blue,H9,>100 µM
O=C1C[C@@H](c2ccc(O)cc2)Oc2cc(O)c(-c3c(O)cc4c(c3O)C(=O)C[C@@H](c3ccc(O)cc3)O4)c(O)c21,visual reading,MDCK,4.9 µg/mL
CCOC(=O)C(NC(=O)CC)(N1CCN(c2cc3c(cc2F)c(=O)c(C(=O)O)cn3C2CC2)CC1)C(F)(F)F,,VERO,>62.5 µg/mL
O=C(CCCN1CCC(O)(c2ccc(NC3CCCCC3)cc2)CC1)c1ccc(F)cc1,,COSA5,35 µM
COc1cc2c(cc1O)[C@@H]1Cc3ccc(OC)c(O)c3CN1CC2,,KB cells,>20 µg/mL
[2H][C@]1(O)C[C@H](n2cc(F)c3c(N)ncnc32)O[C@]1(C#C)CO,luminescence,MT4-GFP,31.9 µM
N[C@H]1CC2CC1c1ccccc12,,G-2,>100 µg/mL
O=C(CCCN1CCC(O)(c2ccc(Cl)cc2)CC1)c1ccc(N2CCCCC2)cc1,,COSA5,100 µM
O=C1C[C@@H](c2ccc(O)cc2)Oc2cc(O)ccc21,WST,Huh7.5,125 µg/mL
O=C(Oc1c(O)c2ccccc2c2ccccc12)c1ccccc1,,VERO,0.24 µg/mL
Nc1ccn([C@H]2CC[C@@H](CO)O2)c(=O)n1,,CFU-GM,1.6 µM
CC(C)[C@H](NC(=O)OCc1ccccc1)C(=O)N[C@@H](CSC(C)(C)C)[C@@H](O)[C@H](O)[C@H](CSC(C)(C)C)NC(=O)[C@@H](NC(=O)OCc1ccccc1)C(C)C,trypan blue,H9,20 µM
C[C@@H](COc1cc(N)nc(N)n1)OCP(=O)(O)O,,HepAD38,>360 µM
Cc1ccc([C@]2(CCl)OC(=O)c3ccccc32)cc1,MTT,TZM-bl,146.7 µM
N[C@@H]1C2CC(c3ccccc32)[C@H]1N,,G-2,>100 µg/mL
COc1ccc2nc(N/N=C/c3ccccn3)cc(C)c2c1,,VERO,0.54 µg/mL
NC(=O)CCNC(=O)c1ccccc1SC(=O)c1cccnc1,XTT,MM,>100 µM
Cc1ccc(/C=C/C(=O)/C=C/c2ccc(C)o2)o1,,VERO,8.11 µg/mL
[2H]C#C[C@]1(CO)O[C@@H](n2ccc3c(N)nc(Cl)nc32)C[C@@H]1O,luminescence,MT4-GFP,>42 µM
CC(=O)NC[C@@H](C=O)NC(=O)[C@H](Cc1ccccc1)NC(=O)[C@H](CC(C)C)NC(=O)OCc1ccccc1,,H1-HELA,316 µM
Nc1ccn([C@@H]2CC[C@H](CO)O2)c(=O)n1,,CFU-GM,13 µM
O=C(c1nn2c(C(F)(F)F)cc(C3CC3)cc2c1Cl)N1CCC2(CC1)OCC1(CO2)CC(O)C1,ATP,Huh7,>50 µM
CC(C)CN(C[C@@H](O)[C@H](Cc1ccccc1)NC(=O)O[C@H]1CCOC1)S(=O)(=O)c1ccc(N)cc1,,HCT-8,>250 µg/mL
C=CC(O)(CCC(C)C1CCC2C3CCC4C[C@@H](O)CC[C@]4(C)C3=CC[C@]12C)C(C)C,ATP / luminescence,Hs27,>100 µM
Nc1ncnc2c1ncn2C[C@@H](CO)OCP(=O)(O)O,trypan blue,HB611,24 µg/mL
Nc1nc(N)c2ncn(CCOCP(=O)(O)O)c2n1,propidium iodide,MT-2,5.3 µM
Cc1c2ccncc2c(C)c2c1sc1ccccc12,,VERO,1.93 µg/mL
Nc1ncnc2c1ncn2[C@@H]1C[C@H](CO)[C@@H](O)[C@@H]1O,trypan blue,HB611,14 µg/mL
[2H]C(O)[C@@]1(C#C)O[C@@H](n2ccc3c(N)nc(Cl)nc32)C[C@@H]1O,luminescence,MT4-GFP,>42 µM
Cc1cc(=O)c2c(O)c3c(O)cc(O)c4c5c(O)cc(O)c6c(O)c7c(=O)cc(C)cc7c(c65)c(c2c1)c34,,MRC-5,11.1 µM
O=C(Nc1ccc(C2=NCC(O)CN2)cc1)c1ccc(C(=O)Nc2ccc(C3=NCC(O)CN3)cc2)cc1,,VERO,>12.5 µg/mL
CC(C)[C@H](NC(=O)OCc1ccccn1)C(=O)N[C@@H](Cc1ccccc1)[C@H](O)[C@@H](O)[C@H](Cc1ccccc1)NC(=O)[C@@H](NC(=O)OCc1ccccn1)C(C)C,trypan blue,H9,>100 µM
Cn1cc(NC(=O)c2cc(NC(=O)CCCCCCC(=O)Nc3cc(C(=O)Nc4cc(C(=O)NCCC(N)=[NH2+])n(C)c4)n(C)c3)cn2C)cc1C(=O)NCCC(N)=[NH2+],,VERO,1.8 µg/mL
CC(C)[C@H](NC(=O)OCc1ccccc1)C(=O)NC(Cc1ccccc1)C(O)C(Cc1ccccc1)NC(=O)[C@@H](NC(=O)OCc1ccccc1)C(C)C,trypan blue,H9,120 µM
O=c1[nH]c(=O)n([C@@H]2O[C@H](CO)[C@@H](O)[C@@H]2F)cc1C12B3B4B5B6B(B3B1B42)B1B5C61,,BFU-E,>100 µM
CCCNCC(=O)Nc1ccc(C)c(Cl)c1,,VERO,57.91 µg/mL
CCC(Cl)C1(c2ccc(Cl)cc2)OC(=O)c2ccccc21,MTT,TZM-bl,250 µM
CC1(C)[C@@H](O[C@@H]2O[C@H](C(=O)O)[C@@H](O)[C@H](O)[C@H]2O)CC[C@]2(C)[C@H]3C(=O)C=C4[C@@H]5C[C@@](C)(C(=O)O)CC[C@]5(C)CC[C@@]4(C)[C@]3(C)CC[C@@H]12,WST,Huh7.5,>30 µg/mL
CCCCN(CCCC)c1ccc(C(=O)CCCN2CCC(O)(c3ccc(Cl)cc3)CC2)cc1,,COSA5,70 µM
CCC[CH2][Sn]([Br])([I])[CH2]CCC.c1cnc2c(c1)ccc1cccnc12,,VERO,0.11 µg/mL
O=c1[nH]c(=O)n(C[C@@H](CO)OCP(=O)(O)O)cc1F,propidium iodide,MT-2,>100 µM
CCC(Cl)C1(c2ccc(F)cc2)OC(=O)c2c(Br)c(Br)c(Br)c(Br)c21,MTT,TZM-bl,130 µM
Cc1ccc(NCCN(C)C)c2c(=O)c3cccc(O)c3sc12,,VERO,0.79 µg/mL
[2H]C#C[C@]1(CO)O[C@@H](n2cnc3c(N)nc(F)nc32)C[C@@H]1O,luminescence,MT4-GFP,>42 µM
CC=CCOc1cc(NC(=S)OC(C)C)ccc1Cl,,VERO,>10 µg/mL
CC1(C)[C@@H](O[C@H]2O[C@H](C(=O)O)[C@@H](O)[C@H](O)[C@H]2O[C@@H]2O[C@H](C(=O)O)[C@@H](O)[C@H](O)[C@H]2O)CC[C@]2(C)[C@H]3C(=O)C=C4[C@@H]5C[C@](C)(C(=O)O)CC[C@]5(C)CC[C@@]4(C)[C@]3(C)CC[C@@H]12,WST,Huh7.5,>30 µg/mL
Nc1nc(N)c(Br)c(OCCOCP(=O)(O)O)n1,,HepAD38,>292 µM
Cc1ccccc1-n1c(SCC(=O)NC(=O)Nc2cccc(Cl)c2)nc2c(Br)cc(Br)cc2c1=O,,VERO,>10 µg/mL
O=C1C(=O)c2ccccc2-c2ccccc21,MTT / absorbance,Normal Vero cell line,25 µg/mL
CO[C@@]12[C@H](COC(N)=O)C3=C(C(=O)C(C)=C(N4CCCC4)C3=O)N1C[C@@H]1N[C@@H]12,,VERO,1.1 µg/mL
O=C(c1nn2c(C(F)(F)F)cc(C3CC3)cc2c1Cl)N1CCC2(CC1)OCC1(COC1)CO2,ATP,Huh7,>50 µM
Cc1ccn2c(N=O)c(-c3ccccc3)nc2c1,,VERO,>12.5 µg/mL
Cc1cn([C@H]2C[C@H](N=[N+]=[N-])[C@@H](CO)O2)c(=O)[nH]c1=O,XTT,C8166,>1000 µM

The last 11 rows once more:

smiles	method	cells	value
Cc1ccc(NCCN(C)C)c2c(=O)c3cccc(O)c3sc12		VERO	0.79 µg/mL
[2H]C#C[C@]1(CO)O[C@@H](n2cnc3c(N)nc(F)nc32)C[C@@H]1O	luminescence	MT4-GFP	>42 µM
CC=CCOc1cc(NC(=S)OC(C)C)ccc1Cl		VERO	>10 µg/mL
CC1(C)[C@@H](O[C@H]2O[C@H](C(=O)O)[C@@H](O)[C@H](O)[C@H]2O[C@@H]2O[C@H](C(=O)O)[C@@H](O)[C@H](O)[C@H]2O)CC[C@]2(C)[C@H]3C(=O)C=C4[C@@H]5C[C@](C)(C(=O)O)CC[C@]5(C)CC[C@@]4(C)[C@]3(C)CC[C@@H]12	WST	Huh7.5	>30 µg/mL
Nc1nc(N)c(Br)c(OCCOCP(=O)(O)O)n1		HepAD38	>292 µM
Cc1ccccc1-n1c(SCC(=O)NC(=O)Nc2cccc(Cl)c2)nc2c(Br)cc(Br)cc2c1=O		VERO	>10 µg/mL
O=C1C(=O)c2ccccc2-c2ccccc21	MTT / absorbance	Normal Vero cell line	25 µg/mL
CO[C@@]12[C@H](COC(N)=O)C3=C(C(=O)C(C)=C(N4CCCC4)C3=O)N1C[C@@H]1N[C@@H]12		VERO	1.1 µg/mL
O=C(c1nn2c(C(F)(F)F)cc(C3CC3)cc2c1Cl)N1CCC2(CC1)OCC1(COC1)CO2	ATP	Huh7	>50 µM
Cc1ccn2c(N=O)c(-c3ccccc3)nc2c1		VERO	>12.5 µg/mL
Cc1cn([C@H]2C[C@H](N=[N+]=[N-])[C@@H](CO)O2)c(=O)[nH]c1=O	XTT	C8166	>1000 µM